# Experimental data reported in paper PMC11409218, “Metal(triphenylphosphine)-atovaquone Complexes: Synthesis, Antimalarial Activity, and Suppression of Heme Detoxification” (Inorganic Chemistry, 2024).
# System: P. falciparum 3D7 (CQ-susceptible strain)
# Test: Antiplasmodial activity, asexual blood stages, HRP2 ELISA-based assay, 3D7 strain
# Assay type: cell-based, Plasmodium falciparum
# Details: CC50 (J774)/IC50(3D7)
# From the text: We determined the half-maximal inhibitory concentration (IC50) of the complexes against asexual blood stages of P. falciparum using CQ-susceptible and CQ-resistant strains (Table 2). […]. Two strains were selected for the tests: the CQ-susceptible 3D7 strain (isolated in West Africa; obtained from MR4, VA, USA), and the CQ-resistant W2 strain (isolated in Indochina; obtained from MR4, VA, USA). Both were maintained in culture in RPMI 1640 (Invitrogen, Paisley, UK), supplemented with 10% human serum (Abcys S.A. Paris, France), and buffered with 25 mM HEPES and 25 mM NaHCO3. Parasites were grown in A-positive human blood (Etablissement Français du Sang, Marseille, France) in controlled atmospheric conditions that consisted of 10% O2, 5% CO2, and 85% N2 at 37 °C with 95% humidity. […]
# For in vitro isotopic microtests, 25 μL/well of antimalarial drug and 200 μL/well of parasitized red blood cell suspension (final parasitemia 0.5%, final hematocrit 1.5%) were distributed into 96-well plates. The plates were incubated for 72 h at 37 °C in 85% N2, 10% O2, 5% CO2. After freezing and then thawing, the hemolyzed cultures were homogenized by vortexing the plates. The drug susceptibility assay was performed using the HRP2 ELISA-based assay of the Malaria Ag Celisa kit (ref KM2159, Cellabs PTY LDT, Brookvale, Australia), as described previously.[72] […] […]. IC50 are expressed as means of at least 5 to 7 independent experiments.
row,Compound,Selectivity index (S.I.)
1,"[Cl][Au].c1ccc(P(c2ccccc2)c2ccccc2)cc1 [AuClPPh3, [Au(PPh3)Cl], reference compound]",2.8
2,"O=C1C([O][Cu]([PH](c2ccccc2)(c2ccccc2)c2ccccc2)[PH](c2ccccc2)(c2ccccc2)c2ccccc2)=C([C@H]2CC[C@H](c3ccc(Cl)cc3)CC2)C(=O)c2ccccc21 [Complex 3, [Cu(ATV)(PPh3)2]]",1175
3,[Ag(ATV)(PPh3)2] [Complex 1],311
4,[Au(ATV)(PPh3)]·2H2O [Complex 2],1333
